Test results as given in patent publication US20100016224.

Assays:
[1] = target: Myc-tagged DDX3 (full length), human, O00571 1-662; assay: immunoprecipitation, DDX3-Myc and HA-tagged K7 mutants
[2] = target: His-tagged DDX3 22-408, human, O00571 22-408; assay: His-DDX3 Ni-Agarose pulldown from lysate with ΔK7-HA
[3] = target: His-tagged full length DDX3 (amino acids 1-662), human, O00571 1-662; assay: as above
[4] = target: His-tagged DDX3 102-408, human, O00571 102-408; assay: as above
[5] = target: His-tagged DDX3 139-408, human, O00571 139-408; assay: as above
[6] = target: His-tagged DDX3 1-408, human, O00571 1-408; assay: as above
[7] = target: His-tagged DDX3 409-662, human, O00571 409-662; assay: as above
[8] = target: Myc-tagged DDX3 1-408, human, O00571 1-408; assay: co-immunoprecipitation, HEK293T cells, Myc-DDX3 1-408 and ΔK7-HA

HA-tagged K7R N-terminal truncation mutant 41-149
result [1]: no binding

HA-tagged K7R truncation mutant 1-93
result [1]: no binding

HA-tagged K7R truncation mutant 1-123
result [1]: no binding

HA-tagged ΔK7R (K7 truncation mutant, aa 1-108)
result [2]: no binding
result [3]: no binding
result [4]: no binding
result [5]: no binding
result [6]: no binding
result [7]: no binding
result [8]: no binding
result [1]: no binding
